Pooled drug test results. Numbers come from NIAID ChemDB, via PubChem.

Shared fields: whole-cell or culture tests; organism: Herpes simplex virus 2; method: plaque count; endpoint: EC50

Blank or dashed fields: not listed here. Lines come from different laboratories, so protocols vary. ECn is the concentration giving n% inhibition of infection, replication or growth. a–b is a range or a potency band.

SMILES,strain,cells,result
Nc1nc2c(ncn2COCCO)c(=O)[nH]1,-,-,0.6–1.3 µg/mL
CCCCCCCCCCCCCCCCCCOC[C@H](COP(=O)(O)CO[C@H](CO)Cn1ccc(N)nc1=O)OCc1ccccc1,MS,HFF,0.01 µM
CC#Cc1cn([C@@H]2O[C@H](COP(=O)(O)OCC(Cl)(Cl)Cl)[C@@H](O)[C@@H]2O)c(=O)[nH]c1=O,SC16,VERO,>100 µM
Cn1cc(C(=O)NCc2ccc(Cl)cc2)c(=O)c2cc(CN3CCOCC3)ccc21,L6010541 (WILD TYPE),HFF,3.6 µM
Nc1nc2c(ncn2COCCO)c(=O)[nH]1,-,Vero cells,2.9 µg/mL
CCCCCCCCCCCC(=O)OCC(CO[C@@H]1O[C@H](CO)[C@@H](O)[C@H](O)[C@H]1O)OC(=O)CCCCCCCCCCC,186,VERO,50 µg/mL
CC(C)(C)[Si](C)(C)OC[C@H]1O[C@@H](n2ccc(=O)[nH]c2=O)[C@H](O[Si](C)(C)C(C)(C)C)[C@]12O[C@@H]2CO,-,VERO,20 µM
CCCCCCCCCCCC(=O)OC[C@H](CO[C@@H]1O[C@H](CO)[C@@H](O)[C@H](O)[C@H]1O)OC(=O)CCCCCCCCCCC,186,VERO,40 µg/mL
C=C1[C@H](CO)[C@@H](O)C[C@@H]1n1cnc2c(=O)[nH]c(N)nc21,-,WI-38,5.8 µM
CCCCCCCCCC(=O)OCC(CO[C@@H]1O[C@H](CO)[C@@H](O)[C@H](O)[C@H]1O)OC(=O)CCCCCCCCC,186,VERO,>50 µg/mL
CCC(=O)C(CCCCCCOc1ccc(OCCCCCCC(C(=O)CC)C(=O)CC)cc1)C(=O)CC,Curtis,-,>3 µg/mL
Nc1ncnc2c1ncn2[C@@H]1C[C@H](CO)[C@@H](O)[C@@H]1O,G-FAU-C2,VERO,24 µM
CCCCCCCCCCCCCCCCOP1(=O)CO[C@@H](Cn2ccc(N)nc2=O)CO1,MS,HFF,>1 µM
O=C(NCc1ccc(Cl)cc1)c1c[nH]c2ccc(C#CCO)cc2c1=O,MS,-,14 µM
Nc1nc(=O)n([C@@H]2O[C@H](CO)[C@@H](O)[C@@H]2F)cc1I,G-FIAU-C1,VERO,29 µM
O=C(Cc1ccccc1)NCCCCNC(=O)Cc1ccccc1,-,-,>20 µg/mL
CCOP(=O)(OCC)C1=NOC(Cn2cc(F)c(=O)[nH]c2=O)C1,-,VERO,>400 µM
CC(C)[C@H](NC(=O)CN)C(=O)OCC(COC(=O)[C@@H](NC(=O)CN)C(C)C)OCn1cnc2c(=O)[nH]c(N)nc21,-,HFF,0.5 µM
O=c1[nH]c(=O)n([C@H]2C[C@H](O)[C@@H](CO)O2)cc1I,G,MRC-5,0.95 µg/mL
COC(=O)[C@H](C)NP(=O)(OC[C@H]1C/C1=C/n1cnc2c(OC)nc(N)nc21)Oc1ccccc1,-,HFF,0.88 µM
Cc1cn([C@@H]2O[C@H](CO)[C@@H](O)[C@@H]2F)c(=O)[nH]c1=O,42-78,HELF,0.48 µM
O=c1ccn([C@@H]2O[C@H](CO)[C@@H](O)[C@@H]2F)c(=O)[nH]1,G-FIAU-C1,VERO,>200 µM
O=c1[nH]c(=O)n([C@H]2C[C@H](O)[C@@H](CO)O2)cc1/C=C/Br,42-78,HELF,27 µM
Nc1ccn([C@H]2O[C@@H](CO)[C@H](O)[C@H]2F)c(=O)n1,G-FIAU-C1,VERO,2.8 µM
O=C(O)C(O)c1ccccc1,G,CaSki,<1 µg/mL
Nc1nc2c(ncn2C[C@]2(CO)C[C@H]2CO)c(=O)[nH]1,186,-,0.24 µg/mL
CCCCCCCC/C=C\CCCCCCCOCCCOP1(=O)CO[C@@H](Cn2ccc(N)nc2=O)CO1,MS,HFF,0.07 µM
CC/C=C/C/C=C/C/C=C/CCCCCCCC(=O)OCC(CO[C@@H]1O[C@H](CO)[C@@H](O)[C@H](O)[C@H]1O)OC(=O)CCCCCCC/C=C\C/C=C\CCCCC,186,VERO,<50 µg/mL
COC(=O)[C@H](C)NP(=O)(OCC1C/C1=C/n1cnc2c(N)ncnc21)Oc1ccccc1,-,VERO,>1 µM
COC(=O)[C@H](C)NP(=O)(OC[C@H]1C/C1=C/n1cnc2c(=O)[nH]c(N)nc21)Oc1ccccc1,-,HFF,39.2 µM
CC(C)(C)[Si](C)(C)OC[C@H]1O[C@@H](n2ccc(=O)[nH]c2=O)[C@H](O[Si](C)(C)C(C)(C)C)/C1=C/CO,-,VERO,>5 µM
Cc1ccc(S(=O)(=O)O)cc1.N/C(=N/N=C/c1ccc2c(c1)OCO2)NO,G,VERO,>50 µM
O=Cc1cn([C@@H]2O[C@H](CO)[C@@H](O)[C@@H]2O)c(=O)[nH]c1=O,42-78,HELF,>500 µM
CC(C)[C@H](N)C(=O)NCC(=O)OCC(COC(=O)CNC(=O)[C@@H](N)C(C)C)OCn1cnc2c(=O)[nH]c(N)nc21,-,HFF,0.25 µM
Cc1cccc(C)c1N(CC(=O)Nc1ccc(-c2ncon2)cc1)C(C)C1CCS(=O)(=O)CC1,Whitlow 2,Vero Cells + HEF cells,0.012 µM
CCCCC/C=C\C/C=C\CCCCCCCC(=O)OCC(CO[C@@H]1O[C@H](CO)[C@H](O)[C@H](O)[C@H]1O)OC(=O)CCCCCCC/C=C\C/C=C\CCCCC,186,VERO,50 µg/mL
[O-][n+]1onc2ncnc(N3CC[N+]4(CC3)CC[N+]3(CCN(c5ncnc6no[n+]([O-])c56)CC3)CC4)c21,P,GMK,10.2 µM
Nc1nc2c(ncn2CCC(CO)CO)c(=O)[nH]1,20 clinical isolates,HEL,2.4 µg/mL
C#Cc1cn([C@H]2C[C@H](O)[C@@H](COP(=O)(O)CC(=O)O)O2)c(=O)[nH]c1=O,3345,VERO,>200 µM
Nc1nc2c(ncn2CCCCO)c(=O)[nH]1,91075,VERO,8 µM
O=C(NCc1ccc(Cl)cc1)c1cn2c3c(cc(CN4CCOCC4)cc3c1=O)OC(c1cccnc1)C2,L6250234 (WILD TYPE),HFF,>16.2 µM
CCCn1cc2c(=O)n(-c3ccccc3)nc-2c2ccc(-c3ccncc3)cc21,-,VERO,>100 µg/mL
O=c1[nH]c(=O)n([C@@H]2O[C@H](CO)[C@@H](O)[C@@H]2O)cc1/C=C/Br,42-78,HELF,290 µM
CC(C)(C)c1ccc(-n2cc(C(N)=O)c(=O)c3ccc(-c4ccncc4)cc32)cc1,Curtis,VERO,>25 µg/mL
C=Cc1cn([C@H]2C[C@H](O)[C@@H](CO)O2)c(=O)[nH]c1=O,3345,VERO,2 µM
CC#Cc1cn([C@@H]2O[C@H](COP(=O)(OCC(Cl)(Cl)Cl)Oc3ccccc3)[C@@H](O)[C@@H]2O)c(=O)[nH]c1=O,SC16,VERO,>100 µM
C=Cc1cn([C@H]2C[C@H](O)[C@@H](CO)O2)c(=O)[nH]c1=O,42-78,HELF,9 µM
CCCCCCCC/C=C\CCCCCCCOCCCOP(=O)(O)CO[C@H](CO)Cn1ccc(N)nc1=O,SR,HFF,0.1 µM
O=c1ccn([C@@H]2O[C@H](CO)[C@@H](O)[C@H]2O)c(=O)[nH]1,42-78,HELF,440 µM
Cc1cn([C@@H]2O[C@H](CO)[C@H]2CO)c(=O)[nH]c1=O,HEET,HFF,3 µg/mL
COC(=O)/C=C1/[C@@H](O[Si](C)(C)C(C)(C)C)[C@H](n2ccc(=O)[nH]c2=O)O[C@@H]1CO[Si](C)(C)C(C)(C)C,-,VERO,>38 µM
Nc1nc2c(ncn2COCCO)c(=O)[nH]1,35D,VERO,5.6 µM
CC#Cc1cn([C@@H]2O[C@H](COP(=O)(N[C@@H](C)C(=O)OC)Oc3ccccc3)[C@@H](O)[C@@H]2O)c(=O)[nH]c1=O,SC16,VERO,>100 µM
COc1cc(OC)c(/C=N/N=C(/N)NO)c(OC)c1.Cc1ccc(S(=O)(=O)O)cc1,G,VERO,>50 µM
Nc1nc2c(ncn2COCCOC(CO)CO)c(=O)[nH]1,G,VERO,>100 µM
CC#Cc1cn([C@@H]2O[C@H](COP(=O)(OCC)Oc3ccccc3)[C@@H](O)[C@@H]2O)c(=O)[nH]c1=O,SC16,VERO,>100 µM
CCCCCCCCCCCCOCCCOP(=O)(O)CO[C@H](CO)Cn1ccc(N)nc1=O,G,HFF,>1 µM
Nc1ncnc2c1ncn2[C@H]1C[C@H](O)[C@@H](COP(=O)(O)CC(=O)O)O1,3345,VERO,>2000 µM
CCc1cn([C@@H]2O[C@H](CO)[C@@H](O)[C@@H]2F)c(=O)[nH]c1=O,G,VERO,0.24 µM
O=C(O)P(=O)(O)O,Heeter,MEF,22.5 µg/mL
Cc1cn([C@@H]2O[C@H](CO[Si](C)(C)C(C)(C)C)C3(O[C@H]3C(=O)NN)[C@H]2O[Si](C)(C)C(C)(C)C)c(=O)[nH]c1=O,-,VERO,>5.5 µM
NC(=O)c1cn(-c2ccc(Br)cc2)c2cc(-c3ccncc3)ccc2c1=O,Curtis,VERO,0.4 µg/mL
CC(C)(C)[Si](C)(C)OC[C@H]1O[C@@H](n2ccc(=O)[nH]c2=O)[C@H](O[Si](C)(C)C(C)(C)C)[C@@]12O[C@H]2C(=O)NN,-,VERO,30 µM
O=c1[nH]c(=O)n([C@@H]2O[C@H](CO)[C@@H](O)[C@@H]2F)cc1CO,G,VERO,2.6 µM
CC(C)(C)[Si](C)(C)OC[C@H]1O[C@@H](n2ccc(=O)[nH]c2=O)[C@H](O[Si](C)(C)C(C)(C)C)C1(O)C(Cl)C(N)=O,-,VERO,>3.8 µM
CCCCCCCCCCCC(=O)OCC(CO[C@@H]1O[C@H](CO)[C@H](O)[C@H](O)[C@H]1O)OC(=O)CCCCCCCCCCC,186,VERO,50 µg/mL